Pooled drug test results. Numbers come from NIAID ChemDB, via PubChem.

All rows: growth or infection tests; species: HIV-1; method: p24; read-out: EC50

ECn is the concentration giving n% inhibition of infection, replication or growth. An empty or dashed field is not shown. Lines come from different laboratories, so protocols vary. Two numbers with a dash give a range or band.

structure,mutations,cell line,strain,value
CCN(CC)CCN1CCn2c(nc(C(=O)NCc3ccc(F)cc3)c(O)c2=O)C1(C)C,,MT-4,,<1 µM
CC(C)C1=C2[C@H]3CC[C@@H]4[C@@]5(C)CC[C@H](OC(=O)C6C[C@@H](C(=O)O)C6(C)C)C(C)(C)[C@@H]5CC[C@@]4(C)[C@]3(C)CC[C@@]2(NC(=O)C(C)(C)NC(=O)c2csc(N)n2)CC1=O,V7A,MT-4,NL4-3,>0.05 µM
Nc1nc(=O)n([C@H]2C=C[C@@H](CO)O2)cc1F,,MT-4,NL-XM WT,<1.4 µM
Cc1cc(C(=O)NC(C)(C)C(=O)N[C@@]23CC[C@]4(C)[C@H](CC[C@@H]5[C@@]6(C)CC[C@H](OC(=O)C7C[C@@H](C(=O)O)C7(C)C)C(C)(C)[C@@H]6CC[C@]54C)C2=C(C(C)C)C(=O)C3)c(C)o1,V7A,MT-4,NL4-3,<0.01 µM
CC1(C)c2nc(C(=O)NCc3ccc(F)cc3)c(O)c(=O)n2CCN1Cc1cocn1,,MT-4,,<1 µM
CCN1c2ncc(CCOc3ccc(-c4ccc(C(=O)O)o4)cc3C)cc2C(=O)N(C)c2cccnc21,RT-K103N Y181C,C8166,,>0.05 µM
CN(C)CC1c2nc(C(=O)NCc3ccc(F)cc3)c(O)c(=O)n2CCN1S(C)(=O)=O,,MT-4,,<50 µM
CC(C)CN(C[C@@H](O)[C@H](Cc1ccccc1)NC(=O)O[C@H]1CO[C@H]2OCC[C@H]21)S(=O)(=O)c1ccc2c(c1)OCO2,,PHA-PBM,92UG029,0.0005 µM
CCN1c2ncc(CCOc3ccc(NC(=O)CCC(=O)O)cc3C)cc2C(=O)N(C)c2cccnc21,,C8166,IIIB,0.01–0.05 µM
CC(=O)N[C@@H]1CCN(c2cc(C)nn3c(I)c(C)nc23)C1,,H9,,>10 µM
C/C=C/CSc1cc(NC(=S)c2ccsc2C)ccc1Cl,RT-Y181C,CEM + CEM-SS,NL4-3,0.5 µM
Cc1nc2cccc(CS(=O)(=O)N(CC3CCCC3)C[C@@H](O)CN(CCc3ccccc3)C(=O)c3ccccc3)c2o1,,CEM,IIIB,<1 µM
CN(C)C(=O)C(=O)N1CCn2c(nc(C(=O)NCc3ccc(F)cc3)c(O)c2=O)C(N(C)C(=O)C(=O)N(C)C)C1,,MT-4,,<1 µM
CC(C)CN(C[C@H](O)C[C@@H](CNC(C)(C)C)Cc1ccccc1)S(=O)(=O)c1ccccc1,,CEM,IIIB,<1 µM
Clc1cc(CN2CCCNCCNCCCNCC2)cc(Cl)n1,,HOS-CD4-CXCR4 + HOS,HE R3 R5 X4,7.9 µM
CC(C)C1=C2[C@H]3CC[C@@H]4[C@@]5(C)CC[C@H](OC(=O)C6C[C@@H](C(=O)O)C6(C)C)C(C)(C)[C@@H]5CC[C@@]4(C)[C@]3(C)CC[C@@]2(NC(=O)C2(NC(=O)c3ccc(F)cc3)CC2)CC1=O,V7A,MT-4,NL4-3,0.01001–0.05 µM
COc1ccc(-c2c(C)sc3c(N4CC[C@@H](NC(C)=O)C4)nc(C)nc23)cc1OC,,H9,,>100 µM
CC1(C)c2nc(C(=O)NCc3ccc(F)cc3)c(O)c(=O)n2CCN1Cc1nn[nH]n1,,MT-4,,<1 µM
N[C@@H](Cc1ccccc1)C(=O)C(F)(F)CN(Cc1ccccc1)S(=O)(=O)c1ccccc1,,CEM,IIIB,<1 µM
CCN1c2ncc(CCOc3ccc(-n4cc(C(=O)O)nn4)cc3C)cc2C(=O)N(C)c2cccnc21,,C8166,IIIB,>0.05 µM
CC(C)[C@H](NC(=O)OCc1ccccn1)C(=O)N[C@@H](Cc1ccccc1)[C@@H](O)C[C@H](Cc1ccccc1)NC(=O)OCc1cccnc1,PR-M46I L63P,MT-4,NL4-3,<0.8 µM
COc1ccc(S(=O)(=O)N(CCc2ccccc2)CC[C@H](O)CN(CC(C)C)S(=O)(=O)c2ccc(OC)cc2)cc1,,CEM,IIIB,<1 µM
Nc1nc(NC2CC2)c2ncn([C@H]3C=C[C@@H](CO)C3)c2n1,RT-M41L D67N K70R T215Y K219Q,MT-4,XM-AZT-resistant,<4.2 µM
CCN1c2ncc(CCOc3ccc(-c4ncc[nH]4)cc3C)cc2C(=O)N(C)c2cccnc21,RT-K103N Y181C,C8166,,<0.01 µM
CC(C)C1=C2[C@H]3CC[C@@H]4[C@@]5(C)CC[C@H](OC(=O)C6C[C@@H](C(=O)O)C6(C)C)C(C)(C)[C@@H]5CC[C@@]4(C)[C@]3(C)CC[C@@]2(NC(=O)C(C)(C)NC(=O)c2ccc(Cl)cn2)CC1=O,,MT-4,NL4-3,<0.005 µM
CCN1c2ncc(CCOc3ccc(-c4ccc(O)cc4)cc3C)cc2C(=O)N(C)c2cccnc21,RT-K103N Y181C,C8166,,<0.01 µM
O=C(O)c1cc(-n2cccc2)ccc1Cl,,MT-2,AZT-resistant X4 CLADE B,51.37 µM
COc1ccc(-c2c(C)nc3c(N4CC[C@@H](NC(=O)C(F)(F)c5ccccc5)C4)cc(C)nn23)cc1OC,,H9,,0.1 µM
COc1ccc(S(=O)(=O)N(CC(O)CN(Cc2ccccc2)C(=O)NC(C)(C)C)CC2CCCC2)cc1,,CEM,IIIB,<1 µM
COc1ccc(-n2cnc3c(N4CC[C@@H](NC(C)=O)C4)ncnc32)cc1OC,,H9,,>100 µM
Cc1cc(-c2ccc[n+]([O-])c2)ccc1OCCc1cnc2c(c1)C(=O)Nc1c(C)ccnc1N2C1CC1,RT-K103N Y181C,C8166,,0.01–0.05 µM
COc1ccc(-n2c(C)nc3c(N4CC[C@@H](NC(C)=O)C4)nc(C)nc32)cc1OC,,H9,,>100 µM
CC1(C)c2nc(C(=O)NCc3ccc(F)cc3)c(O)c(=O)n2CCN1Cc1nnco1,,MT-4,,<1 µM
CC(=O)Nc1cccc(-c2c(C)nc3c(N4CC[C@@H](NC(C)=O)C4)cc(Cl)nn23)c1,,H9,,>100 µM
O=C1NC(=O)C(CS(=O)(=O)N(CC2CCCC2)C[C@@H](O)CN(CCc2ccccc2)C(=O)c2ccccc2)N1,,CEM,IIIB,<1 µM
Cc1ccc(-c2ccc3c(c2)C=C(C(=O)Nc2ccc(C[N+](C)(C)C4CCOCC4)cc2)CCC3)cc1,,PBMC,TB2 CLADE C,<1 µM
COc1ccc(-c2c(C)nn3c(N4CC[C@@H](NC(C)=O)C4)cc(C)nc23)cc1OC,,H9,,>100 µM

A second listing of 5 rows from above:

{"structure": "CC(C)C1=C2[C@H]3CC[C@@H]4[C@@]5(C)CC[C@H](OC(=O)C6C[C@@H](C(=O)O)C6(C)C)C(C)(C)[C@@H]5CC[C@@]4(C)[C@]3(C)CC[C@@]2(NC(=O)C(C)(C)NC(=O)c2csc(N)n2)CC1=O", "mutations": "V7A", "cell line": "MT-4", "strain": "NL4-3", "value": ">0.05 µM"}
{"structure": "O=C(O)c1cc(-n2cccc2)ccc1Cl", "cell line": "MT-2", "strain": "AZT-resistant X4 CLADE B", "value": "51.37 µM"}
{"structure": "COc1ccc(-c2c(C)sc3c(N4CC[C@@H](NC(C)=O)C4)nc(C)nc23)cc1OC", "cell line": "H9", "value": ">100 µM"}
{"structure": "CCN(CC)CCN1CCn2c(nc(C(=O)NCc3ccc(F)cc3)c(O)c2=O)C1(C)C", "cell line": "MT-4", "value": "<1 µM"}
{"structure": "CN(C)C(=O)C(=O)N1CCn2c(nc(C(=O)NCc3ccc(F)cc3)c(O)c2=O)C(N(C)C(=O)C(=O)N(C)C)C1", "cell line": "MT-4", "value": "<1 µM"}